Laboratory results from article PMC7927077, “Glucose-Binding of Periplasmic Protein GltB Activates GtrS-GltR Two-Component System in Pseudomonas aeruginosa” (Microorganisms, 2021).
Where a protein sequence is shown, tags need not be part of it. For part of these data: The exact form of at least one protein or probe is not confirmed. For part of these data: The comparison behind a weaker result is the experiment's own reference, which may not be listed here. For part of these data: At least one verdict rests on a figure or table, not on a statement of the authors.

Columns and labels:
[1] = target: T1, 6His-GltR (Pseudomonas aeruginosa PAO1) (UniProt G3XCY6); test: DNase I footprinting; conditions: 50 mM acetyl phosphate; footprint: 300 ng DNA, 50 mM acetyl phosphate, 50 uL); recombinant protein; residues 1-242; protein details: N-terminal 6His (pET28a); label: 6-FAM on forward primer; probe letters rebuilt from the primers and the genome
T1 sequence (looked up): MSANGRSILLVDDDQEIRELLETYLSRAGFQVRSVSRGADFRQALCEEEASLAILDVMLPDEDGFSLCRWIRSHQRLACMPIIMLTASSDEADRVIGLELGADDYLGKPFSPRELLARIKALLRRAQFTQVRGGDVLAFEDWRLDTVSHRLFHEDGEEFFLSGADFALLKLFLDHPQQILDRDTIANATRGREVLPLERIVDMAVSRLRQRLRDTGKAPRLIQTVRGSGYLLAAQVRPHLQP

[2] = target: T1, 6His-GltR (Pseudomonas aeruginosa PAO1); test: EMSA; conditions: 10 mM Tris-Cl pH 7.8, 1 mM DTT, 10% glycerol, 5 mM MgCl2, 10 mM KCl, 37 C 30 min (EMSA: 40 ng probe, +/- 50 mM acetyl phosphate, 15 uL, 6% gel in 0.5x TBE at 4 C), recombinant protein, residues 1-242, protein details: N-terminal 6His (pET28a), label: none (GelRed stain), probe letters rebuilt from the primers and the genome
[3] = 50 mM acetyl phosphate (stronger affinity)

Sequence	binding result [1]	binding result [2, 3]	binding result ([2]; no acetyl phosphate)	binding result ([2]; 50 mM acetyl phosphate (binding increased))
GGTCCAGGGTACTGCGTTTCTGGAACGACAAGGTGCTGCCGCGCAGGGAGGTGCTGCTGGAGGTCATTCTCGTGTTGTAGGAGGTTTCTGTCGCGAAACCGCCTTGCCGAGTTCAAGTCCAGATTTTCCTGCTCTGCCTCAATCCCAATGTAACCGCTCCGTGACAAACCCGGATCGCTTCGTTACCCGCGACGCGGAACGCTTGAATAGACTCGGAGCATTGCAAGCGCAGACTTGCTCCGAATAACAAGAAGAAGGTTTTCCTCATGAATGCGATCCGTCGCCTCTCTGCCGTCATCTGT (double strand) [gltB-p FAM]	binds			
TTGCAGCATGGAACGCCTCGATGGATTGCCAGGTTGGACCGGCACGCAGGCTGCGACGAGGCAGCCGAGGACGTCCCTGTGGCCCGGCGAGGCGGGCATGGCGCGTGTTCCGGCTCGCAGAGTATCGACAGCGGATCTGACAACTTGAGGACGACGCAGGGGCCGGGCCAGAGCCGACGAAGGGAAATAGCTGGCATGGATGTTCTGCGGGGCTTCGGTTAATCTCTGTGACGAATGTCACATTGTGCCAGTCGAAGGATCTGACTCATGGATGTCCCTCCCACCGTTCAGGATGAACAGGCCGTTTCCCGCCAGTTGCACTCGTTGA (double strand) [ctpH-p FAM]	binds			
TTGCAGCATGGAACGCCTCGATGGATTGCCAGGTTGGACCGGCACGCAGGCTGCGACGAGGCAGCCGAGGACGTCCCTGTGGCCCGGCGAGGCGGGCATGGCGCGTGTTCCGGCTCGCAGAGTATCGACAGCGGATCTGACAACTTGAGGACGACGCAGGGGCCGGGCCAGAGCCGACGAAGGGAAATAGCTGGCATGGATGTTCTGCGGGGCTTCGGTTAATCTCTGTGACGAATGTCACATTGTGCCAGTCGAAGGATCTGACTCATGGATGTCCCTCCCACCGTTCAGGATGAACAGGCCGTTTCCCGCCAGTTGCACTCGTTGA (double strand) [ctpH-p]		binds	binds more weakly	
GGTCCAGGGTACTGCGTTTCTGGAACGACAAGGTGCTGCCGCGCAGGGAGGTGCTGCTGGAGGTCATTCTCGTGTTGTAGGAGGTTTCTGTCGCGAAACCGCCTTGCCGAGTTCAAGTCCAGATTTTCCTGCTCTGCCTCAATCCCAATGTAACCGCTCCGTGACAAACCCGGATCGCTTCGTTACCCGCGACGCGGAACGCTTGAATAGACTCGGAGCATTGCAAGCGCAGACTTGCTCCGAATAACAAGAAGAAGGTTTTCCTCATGAATGCGATCCGTCGCCTCTCTGCCGTCATCTGT (double strand) [gltB-p]			binds more weakly	binds
CAACGACGGGCCGGTGACCTTCCTGCTGGAGAGTTGATCGGCGTCGAGGGGATTTTCCCCAAGGTGCTTCAGGGAGGGATGGCGGGGCCGGAACGGTGAATTTTTGTGACAGATACATGGCCTTTTGTCACAACCTCGGTGCATCATCCGCACGCCGATTTCATGCTGTACAGGACAGGCCGGCCGGCATCCCGATGCCGGGCGGGGCGTCCTGCAACCCAATGGACGGGAATCATTCCGCCCGGGCAGGGTCGGAACCTCTGGGGTCGCTAGCCGACGAGCGGCATGCCCCCTGGTCTTCCAGGCCCGGTGCACGTAACGCGAATGACTGGAAACAGGCATTCTTTTTGTCAGATCGCGCCAAATCTGGCTATCTATCGGGTTTGGCAGCGAATGTGGCGAAACCATGTTCGACCGGCACTCCGGTGCCGTCGGAGACCCCTGAACGGTCAGGGCGTCTTCAGTAATTCATGTTCACGGACGAGGGGGCCTCGTGATTTTCCGTTCCGTTTC (double strand) [opgG-p]		binds	binds more weakly	
CAACGACGGGCCGGTGACCTTCCTGCTGGAGAGTTGATCGGCGTCGAGGGGATTTTCCCCAAGGTGCTTCAGGGAGGGATGGCGGGGCCGGAACGGTGAATTTTTGTGACAGATACATGGCCTTTTGTCACAACCTCGGTGCATCATCCGCACGCCGATTTCATGCTGTACAGGACAGGCCGGCCGGCATCCCGATGCCGGGCGGGGCGTCCTGCAACCCAATGGACGGGAATCATTCCGCCCGGGCAGGGTCGGAACCTCTGGGGTCGCTAGCCGACGAGCGGCATGCCCCCTGGTCTTCCAGGCCCGGTGCACGTAACGCGAATGACTGGAAACAGGCATTCTTTTTGTCAGATCGCGCCAAATCTGGCTATCTATCGGGTTTGGCAGCGAATGTGGCGAAACCATGTTCGACCGGCACTCCGGTGCCGTCGGAGACCCCTGAACGGTCAGGGCGTCTTCAGTAATTCATGTTCACGGACGAGGGGGCCTCGTGATTTTCCGTTCCGTTTC (double strand) [opgG-p FAM]	binds			
